Sequence variants of PSTVd loop 15 after infection

Reference: Wu et al. 2024, doi:10.1371/journal.ppat.1012142.

Region: loop 15 of PSTVd (intermediate strain), upper and lower strand joined, each 5' to 3', the first 7 letters being the upper strand, closing pairs included. Wild type: GGAAACCGCUACUAC. Varied positions (N): GGAAACCGNNNNNNC.

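A pool of all variants was put on leaves of three Nicotiana benthamiana plants. Progeny were sequenced from the inoculated region (day 5), the margin of the inoculated leaf (day 10) and systemic leaves (day 12).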

Values are reads per thousand in the sample; higher means more abundant, 0 means not found. Each value is the mean of three plants. "Pool" is the share in the plasmid pool used as inoculum, on the same scale. The inoculated region was read from the minus strand, the other sites from the plus strand. Sequences that differ at fixed positions probably stem from PCR or sequencing errors, and defective variants can be carried along by functional ones. For reference, wild type rose from 33.9 per thousand in the pool to 202, 200, 159 (inoculated region), 724, 746, 710 (leaf margin) and 856, 883, 880 (systemic leaves). With 43,870-66,106 reads a sample, very low values are single reads.

GGAAACCGUUGUUUC (pool 0.144) read inoculated region 0.434; leaf margin 0.145; systemic leaves 0.00537. With GGAAACCGCAGCGGC (pool 0.224) the assay gave inoculated region 0.0567; leaf margin 0.0200; systemic leaves 0.0161. For GGAAACCGCAGAGAC (pool 0.208) the result was inoculated region 0.0941; leaf margin 0.0200; systemic leaves 0. With GGAAACCGAUACUAC (pool 0.432) the assay gave inoculated region 24.9; leaf margin 12.7; systemic leaves 6.96. GGAAACCGAACCGGC (pool 0.176) gave inoculated region 0.0967; leaf margin 0; systemic leaves 0.00537. GGAAACCGAACUAAC (pool 0.272) gave inoculated region 0.0998; leaf margin 0.00668; systemic leaves 0.0152. GGAAACCGGCGAGAC (pool 0.240) read inoculated region 0.101; leaf margin 0.0262; systemic leaves 0. GGAAACCGCAGCUCC (pool 0.128) gave inoculated region 0.0914; leaf margin 0.0267; systemic leaves 0.

For GGAAACCGCAAUAUC (pool 0.192) the result was inoculated region 0.117; leaf margin 0.0215; systemic leaves 0. For GGAAACCGACUUUCC (pool 0.304) the result was inoculated region 0.0722; leaf margin 0; systemic leaves 0. With GGAAACCGGUGCAAC (pool 0.272) the assay gave inoculated region 0.131; leaf margin 0.0128; systemic leaves 0. For GGAAACCGCCUUCUC (pool 0.336) the result was inoculated region 0.113; leaf margin 0; systemic leaves 0. GGAAACCGGGGUGGC (pool 0.208) read inoculated region 0.0963; leaf margin 0.0128; systemic leaves 0. GGAAACCGCUUGGUC (pool 0.272) gave inoculated region 0.127; leaf margin 0.0282; systemic leaves 0. GGAAACCGGAAUACC (pool 0.272) gave inoculated region 0.111; leaf margin 0.00742; systemic leaves 0. GGAAACCGGAAAGUC (pool 0.240) read inoculated region 0.0505; leaf margin 0; systemic leaves 0.

GGAAACCGCCAAAAC (pool 0.224) gave inoculated region 0.326; leaf margin 0.114; systemic leaves 0.0644. With GGAAACCGUUGCCGC (pool 0.304) the assay gave inoculated region 0.0498; leaf margin 0.00539; systemic leaves 0. For GGAAACCGUGCGCUC (pool 0.176) the result was inoculated region 0.209; leaf margin 0.0121; systemic leaves 0. GGAAACCGUUAAGUC (pool 0.224) read inoculated region 0.368; leaf margin 0.120; systemic leaves 0.0107. For GGAAACCGUGAUACC (pool 0.224) the result was inoculated region 0.155; leaf margin 0.00668; systemic leaves 0. For GGAAACCGUCACAAC (pool 0.224) the result was inoculated region 0.331; leaf margin 0.106; systemic leaves 0.0816. With GGAAACCGAGAAAUC (pool 0.256) the assay gave inoculated region 0.0567; leaf margin 0.0195; systemic leaves 0. GGAAACCGCAGGGUC (pool 0.256) read inoculated region 0.0813; leaf margin 0.00539; systemic leaves 0.

For GGAAACCGGAGCAUC (pool 0.192) the result was inoculated region 0.149; leaf margin 0; systemic leaves 0. GGAAACCGGACAAGC (pool 0.112) read inoculated region 0.113; leaf margin 0.00742; systemic leaves 0. With GGAAACCGGUCAGUC (pool 0.240) the assay gave inoculated region 0.0495; leaf margin 0.0134; systemic leaves 0. GGAAACCGCAAGACC (pool 0.176) read inoculated region 0.0551; leaf margin 0.0175; systemic leaves 0. GGAAACCGCGUAAGC (pool 0.320) gave inoculated region 0.0507; leaf margin 0; systemic leaves 0. GGAAACCGCGGAUCC (pool 0.176) read inoculated region 0.101; leaf margin 0; systemic leaves 0. For GGAAACCGUACCAGC (pool 0.224) the result was inoculated region 0.0720; leaf margin 0.0121; systemic leaves 0. With GGAAACCGGAAGCUC (pool 0.192) the assay gave inoculated region 0.120; leaf margin 0.0134; systemic leaves 0.

For GGAAACCGCCACUAC (pool 0.736) the result was inoculated region 0.580; leaf margin 0.532; systemic leaves 0.277. GGAAACCGAUAGAAC (pool 0.208) gave inoculated region 0.322; leaf margin 0.166; systemic leaves 0.0379. GGAAACCGUAGUGCC (pool 0.256) read inoculated region 0.120; leaf margin 0.00668; systemic leaves 0. GGAAACCGGGGACCC (pool 0.256) gave inoculated region 0.0950; leaf margin 0.0215; systemic leaves 0.0104. GGAAACCGCGAGCCC (pool 0.256) read inoculated region 0.0610; leaf margin 0.00668; systemic leaves 0.00537. GGAAACCGUGACGCC (pool 0.272) gave inoculated region 0.0743; leaf margin 0.0249; systemic leaves 0. GGAAACCGUAAAUUC (pool 0.224) read inoculated region 0.384; leaf margin 0.152; systemic leaves 0.0467.

The last 4 entries again:

| sequence | pool | inoculated region | leaf margin | systemic leaves |
|---|---|---|---|---|
| GGAAACCGGGGACCC | 0.256 | 0.0950 | 0.0215 | 0.0104 |
| GGAAACCGCGAGCCC | 0.256 | 0.0610 | 0.00668 | 0.00537 |
| GGAAACCGUGACGCC | 0.272 | 0.0743 | 0.0249 | 0 |
| GGAAACCGUAAAUUC | 0.224 | 0.384 | 0.152 | 0.0467 |